Compound potency records, mixed from different reports. Data source: NIAID ChemDB in PubChem.

All rows: growth or infection tests; species: HIV-1; measure: EC50

Conditions beyond the fields shown may differ between rows. Blank or dashed fields: not listed here. ECn: concentration that inhibits the pathogen or its effect by n%.

structure | strain | changes | cells | method | setting | result
CC1(C)C2=CC(=O)C(O)(c3ccccc3)C(=O)N2c2ccc(Cl)cc21 | CC15 |  | PBMC/1(CC15) + PBMC | p24 |  | 0.01 µM
Cc1cn([C@H]2C=C[C@@H](CO)O2)c(=O)[nH]c1=O | HXB2 | RT-M184V | MAGI (CCR5) + MAGI | β-galactosidase |  | 5.6 µM
Nc1ncnc2c1ncn2[C@@H]1O[C@H](OCP(=O)(O)O)C=C1F | UG-92-031 (subtype A) |  | PBMCs | p24 / ELISA / antigen | 4 d | 12.5 µM
CCCCCCCCCCCCSCC(COP(=O)([O-])OCC[N+](C)(C)C)OCCCCCCCCC(=O)OCC(=O)OC[C@H]1O[C@@H](n2cc(C)c(=O)[nH]c2=O)C[C@@H]1N=[N+]=[N-] | 5346/5652-MDR (RT T215F A98S D67N K219Q) Drug-resistant | RT-T215F A98S D67N K219Q | CEM-SS | plaque count |  | 0.03 µM
CCOC(=O)[C@H](C)N[P@](=O)(CO[C@@H]1C=C(F)[C@H](n2cnc3c(N)ncnc32)O1)Oc1ccccc1 | LJM (subtype B) |  | PBMCs | p24 / ELISA / antigen | 4 d | 0.027 µM
Cc1cn([C@H]2C[C@H](N=[N+]=[N-])[C@@H](CO)O2)c(=O)[nH]c1=O | BaL | RT-V106A | Macrophage + Monocytes/macrophages | p24 |  | 0.06 µM
Nc1nc(=O)n([C@@H]2CS[C@H](CO)O2)cc1F | LAV-1 |  | CEM(TK-) + CEM TK- | cytopathic effect |  | 0.03 µM
Nc1cccc(C[C@H]2C[C@H](Cc3ccccc3)N(C[C@@H](O)C[C@@H](Cc3ccccc3)C(=O)N[C@H]3c4ccccc4C[C@H]3O)C2=O)c1 |  |  | MT-4 + MT4 |  |  | 0.32 µM
Cc1cc(S(N)(=O)=O)ccc1NC(=O)COc1ccc(Cl)cc1C(=O)c1cc(Cl)cc(C#N)c1 | NNRTI-resistant (RT K103N G190A) | RT-K103N G190A | MAGI | β-galactosidase |  | 0.0041 µM
Cc1ccnc2c1NC(=O)c1cccnc1N2C1CC1 | NL4-3 | V106A | C8166 | p24 / ELISA |  | 23.5 µM
O=C1CN=C(c2ccc[nH]2)c2cc(Cl)ccc2N1 | IIIB/LAI |  | HUT-78/IIIB/LAI + HUT 78 | antigen |  | >1 µM
Cc1c(N)nc([C@H](CC(N)=O)NC[C@H](N)C(N)=O)nc1C(=O)N[C@H](C(=O)N[C@H](C)[C@@H](O)[C@H](C)C(=O)N[C@H](C(=O)NCCc1nc(-c2nc(C(=O)NCCC[S+](C)C)cs2)cs1)[C@@H](C)O)C(O[C@@H]1O[C@@H](CO)[C@@H](O)[C@H](O)[C@@H]1O[C@H]1O[C@H](CO)[C@@H](O)[C@H](OC(N)=O)[C@@H]1O)c1cnc[nH]1 | BaL |  | PBLC | XTT / p24 |  | ~0.3 µg/mL
COC(=O)[C@H](Cc1ccccc1)NP(=O)(O)OC[C@H]1C[C@@H](n2cnc3cnccc32)[C@H](O)[C@@H]1O | G910 AZT-resistant |  | PBL | p24 |  | 10 µM
CC(C)Nc1cccnc1N1CCN(C(=O)c2cc3cc(NS(C)(=O)=O)ccc3[nH]2)CC1 | BaL |  | Macrophage + Monocytes/macrophages | p24 |  | 0.02 µM
CC(C)(C)NC(=O)[C@@H]1C[C@@H]2CCCC[C@@H]2CN1C[C@@H](O)[C@H](Cc1ccccc1)NC(=O)[C@H](CC(N)=O)NC(=O)c1ccc2ccccc2n1 | MVP-5190 |  | HuT-78 + HUT 78 | RT activity |  | <0.02 µM
CCc1nc2sccn2c1C(=O)c1ccco1 |  |  | U1 | RT activity |  | >100 µM
NC(=O)c1cccc(C[C@H]2C[C@H](Cc3ccccc3)N(C[C@@H](O)C[C@@H](Cc3ccccc3)C(=O)N[C@H]3c4ccccc4C[C@H]3O)C2=O)c1 |  |  | MT-4 + MT4 |  |  | 0.14 µM
Cc1cn([C@H]2C[C@H](N=[N+]=[N-])[C@@H](CO)O2)c(=O)[nH]c1=O | LAV-1 |  | CEM(TK-) + CEM TK- | cytopathic effect | 14 d | >100 µM
COc1ccc(CN[C@@H](C(=O)N[C@H]2c3ccccc3C[C@H]2O)[C@H](O)[C@H](Cc2ccccc2)NC(=O)[C@@H](NC(=O)OCc2ccccc2)C(C)(C)C)cc1 | IIIB |  | MOLT4 + MOLT-4 | p24 |  | 0.088 µM
Nc1nccc2c1ncn2[C@@H]1O[C@H](CO)[C@@H](O)[C@H]1O | A012 PRE-AZT |  | PBL | p24 |  | 0.144 µM
COc1ccc(C2CNC(=O)C2)cc1OC1CCCC1 | IIIB |  | A3.5 | p24 |  | 30 µM
C#C[C@@]1(CO)C=C[C@H](n2cc(C)c(=O)[nH]c2=O)O1 | HXB2 | RT-A62V V75I F77L F116Y Q151M | MAGI (CCR5) + MAGI | β-galactosidase |  | 1.1 µM
C[C@H]1/C=C/[C@@]2(C)CC[C@@H](C(C)(C)O)[C@@H]2[C@@H](O)C[C@](C)(O)/C=C/C1 | 95BRRJ010 X4 |  | U87 (CD4+ CCR5+ CXCR4+) + U87 | cytopathic effect / XTT |  | ~15 µM
Cc1cn([C@H]2C[C@H](N=[N+]=[N-])[C@@H](CO)O2)c(=O)[nH]c1=O | UG-92-024 (subtype D) |  | PBMCs | p24 / ELISA / antigen | 4 d | 0.13 µM
CCc1nc2ccccn2c1C(=O)c1cccs1 |  |  | U1 | RT activity |  | >100 µM
C[C@H](Cn1cnc2c(N)ncnc21)OCP(=O)(O)O | BR-92-025 (subtype C) |  | PBMCs | p24 / ELISA / antigen | 4 d | 1.9 µM
O=Nc1c(-c2c(O)[nH]c3ccccc23)[nH]c2ccccc12 | IIIB |  | PM1 | p24 |  | ~0.5 µM
CCCCCCCCCCCCSCC(COP(=O)([O-])OCC[N+](C)(C)C)OCCCCCCCCO | 5346 WT |  | CEM-SS | plaque count |  | 0.18 µM

A second listing of 2 rows from above:

{"structure": "Cc1cn([C@H]2C[C@H](N=[N+]=[N-])[C@@H](CO)O2)c(=O)[nH]c1=O", "strain": "LAV-1", "cells": "CEM(TK-) + CEM TK-", "method": "cytopathic effect", "setting": "14 d", "result": ">100 µM"}
{"structure": "Cc1c(N)nc([C@H](CC(N)=O)NC[C@H](N)C(N)=O)nc1C(=O)N[C@H](C(=O)N[C@H](C)[C@@H](O)[C@H](C)C(=O)N[C@H](C(=O)NCCc1nc(-c2nc(C(=O)NCCC[S+](C)C)cs2)cs1)[C@@H](C)O)C(O[C@@H]1O[C@@H](CO)[C@@H](O)[C@H](O)[C@@H]1O[C@H]1O[C@H](CO)[C@@H](O)[C@H](OC(N)=O)[C@@H]1O)c1cnc[nH]1", "strain": "BaL", "cells": "PBLC", "method": "XTT / p24", "result": "~0.3 µg/mL"}